Compound potency records, mixed from different reports. Data source: NIAID ChemDB in PubChem.

Shared fields: target-level tests; species: HIV-1; protein: Reverse transcriptase

Blank or dashed fields: not listed here. ICn is the concentration giving n% inhibition. Fold resistance has wild type as its base. a–b is a range or a potency band. Conditions beyond the fields shown may differ between rows.

structure | mutations | endpoint | read by | strain or isolate | value
CCN1c2ncc(CCOc3ccc(CC(=O)O)c4c3CCCC4)cc2C(=O)N(C)c2ccc(Cl)nc21 | RT-K103N Y181C | fold resistance | nucleotide incorporation / radiometric |  | 1–10
CC(C)(C#Cc1ccc(NC(=O)CSc2nnnn2-c2cc(CC3CC3)ccc2Cl)c(Cl)c1)C(=O)O |  | IC50 | PicoGreen / fluorescence | WT | <1 µM
CCN1c2ncc(CCOc3ccc(CC(=O)O)c4ccccc34)cc2C(=O)N(C)c2ccc(C)nc21 | RT-K103N Y181C | fold resistance | nucleotide incorporation / radiometric |  | 1–10
COC(=O)CN(C)CCOc1ccc(-c2ccc(NC(=O)CSc3nnnn3-c3ccc(C(C)(C)C)cc3Cl)c(Cl)c2)cc1 |  | IC50 | PicoGreen / fluorescence | WT | <1 µM
CCN1c2ncc(CCOc3ccc(C4CC4C(=O)O)c4ccccc34)cc2C(=O)N(C)c2ccc(F)nc21 | RT-V106A | fold resistance | nucleotide incorporation / radiometric |  | 1–10
CCN1c2ncc(CCOc3ccc(-n4nc(C(=O)O)cc4C)cc3C)cc2C(=O)N(C)c2cccnc21 | RT-K103N Y181C | fold resistance | nucleotide incorporation / radiometric | IIIB | >2
CC(C)(C)c1ccc(-n2nnnc2SCC(=O)Nc2ccc(NC(=O)Cc3ccncc3)cc2Cl)c(Cl)c1 | RT-K103 Y181C | IC50 | PicoGreen / fluorescence |  | <1 µM
CCN1c2ncc(CCOc3ccc(-c4cc(C(=O)O)c(C)o4)cc3)cc2C(=O)N(C)c2cccnc21 | RT-K103N Y181C | fold resistance | nucleotide incorporation / radiometric | IIIB | >2
CCN1c2ncc(CCOc3ccc(C(=O)O)c4c3CCCC4)cc2C(=O)N(C)c2ccc(C)nc21 | RT-Y188L | fold resistance | nucleotide incorporation / radiometric |  | 1–10
CCN1c2ncc(CCOc3ccc(-c4ccc(CC(=O)O)cc4)cc3CO)cc2C(=O)N(C)c2cccnc21 | RT-K103N Y181C | fold resistance | nucleotide incorporation / radiometric | IIIB | 1
CC(C)(C#Cc1ccc(NC(=O)CSc2nnnn2-c2ccc(C3CC3)cc2Cl)c(Cl)c1)C(=O)NCc1cc[n+]([O-])cc1 |  | IC50 | PicoGreen / fluorescence | WT | <1 µM
CCN1c2ncc(CCOc3ccc(-c4cc[n+]([O-])c(C)c4)cc3C)cc2C(=O)N(C)c2cccnc21 | RT-K103N Y181C | fold resistance | nucleotide incorporation / radiometric | IIIB | 1
CCN1c2ncc(CCOc3ccc(C(=O)O)c4c3CCCC4)cc2C(=O)N(C)c2ccc(F)nc21 | RT-V106A | fold resistance | nucleotide incorporation / radiometric |  | >10
CC(C)(C)c1ccc(-n2nnnc2SCC(=O)Nc2ccc(-c3ccc(OCC(=O)O)cc3F)cc2Cl)c(Cl)c1 |  | IC50 | PicoGreen / fluorescence | WT | <1 µM
CCc1cc(CCc2nc3ccccc3o2)c(=O)[nH]c1C | RT-Y181H | fold resistance | nucleotide incorporation |  | 31.9

The last 2 rows once more:

structure,mutations,endpoint,read by,strain or isolate,value
CC(C)(C)c1ccc(-n2nnnc2SCC(=O)Nc2ccc(-c3ccc(OCC(=O)O)cc3F)cc2Cl)c(Cl)c1,,IC50,PicoGreen / fluorescence,WT,<1 µM
CCc1cc(CCc2nc3ccccc3o2)c(=O)[nH]c1C,RT-Y181H,fold resistance,nucleotide incorporation,,31.9